System: HIV-1LAI virus
Conditions: for IC50, inhibition of RT production: 247 TCID50 HIV-1LAI, CEM cells, 7 days; for inhibition of HIV-1 cell free virus infection: FIG. 1 legend
Method: Synthetic peptides were incubated at 37° C. with either 247 TCID50 (for experiment depicted in FIG. 2), or 62 TCID50 (for experiment depicted in FIG. 3) units of HIV-1LAI virus or 25 TCID50 units of HIV-2NIHZ and CEM CD4^+ cells at peptide concentrations of 0, 0.04, 0.4, 4.0, and 40 μg/ml for 7 days. The resulting reverse transcriptase (RT) activity in counts per minute was determined using the assay described, below, in Section 6.1.5. See Reed, L. J. et al., 1938, Am. J. Hyg. 27: 493-497 for an explanation of TCID50 calculations.
The micro-reverse transcriptase (RT) assay was adapted from Goff et al. (Goff, S. et al., 1981, J. Virol. 38:239-248) and Willey et al. (Willey, R. et al., 1988, J. Virol. 62:139-147). Supernatants from virus/cell cultures are adjusted to 1% Triton-X100. A 10 μl sample of supernatant was added to 50 μl of RT cocktail in a 96-well U-bottom microtitre plate and the samples incubated at 37° C. for 90 min. The RT cocktail contained 75 mM KCl, 2 mM dithiothreitol, 5 mM MgCl2, 5 μg/ml poly A (Pharmacia, cat. No. 27-4110-01), 0.25 units/ml oligo dT (Pharmacia, cat. No. 27-7858-01), 0.05% NP40, 50 mM Tris-HCl, pH 7.8, 0.5 μM non-radioactive dTTP, and 10 μCi/ml ^32P-dTTP (Amersham, cat. No. PB.10167).
After the incubation period, 40 μl of reaction mixture was applied to a Schleicher and Schuell (S+S) NA45 membrane (or DE81 paper) saturated in 2×SSC buffer (0.3M NaCl and 0.003M sodium citrate) held in a S+S Minifold over one sheet of GB003 (S+S) filter paper, with partial vacuum applied. Each well of the minifold was washed four times with 200 μl 2×SSC, under full vacuum. The membrane was removed from the minifold and washed 2 more times in a pyrex dish with an excess of 2×SSC. Finally, the membrane was drained on absorbent paper, placed on Whatman #3 paper, covered with Saran wrap, and exposed to film overnight at −70° C.
DP178 (SEQ ID:1) was next tested for its ability to block CD-4^+ CEM cell infection by cell free HIV-1 virus. […] Each concentration (0, 0.04, 0.4, 4, and 40 μg/ml) of peptide was incubated with 247 TCID50 units of HIV-1LAI virus and CEM cells. After 7 days of culture, cell-free supernatant was tested for the presence of RT activity as a measure of successful infection.

Row | SMILES | IC50, inhibition of RT production | inhibition of HIV-1 cell free virus infection
1 | CC[C@H](C)[C@H](NC(=O)CNC(=O)[C@H](Cc1c[nH]c2ccccc12)NC(=O)[C@@H](NC(=O)[C@@H](NC(=O)[C@H](CC(C)C)NC(=O)[C@H](CCC(N)=O)NC(=O)[C@H](CC(C)C)NC(=O)[C@H](CC(C)C)NC(=O)[C@H](Cc1c[nH]cn1)NC(=O)[C@H](CCC(N)=O)NC(=O)[C@H](CCC(N)=O)NC(=O)[C@H](C)NC(=O)[C@H](CCC(=O)O)NC(=O)[C@@H](NC(=O)[C@H](C)NC(=O)[C@H](CCCNC(=N)N)NC(=O)[C@H](CC(C)C)NC(=O)[C@H](CC(C)C)NC(=O)[C@H](CC(N)=O)NC(=O)[C@H](CC(N)=O)NC(=O)CNC(=O)CNC(=O)[C@H](CS)NC(C)=O)[C@@H](C)CC)[C@@H](C)O)C(C)C)C(=O)N[C@@H](CCCCN)C(=O)N[C@@H](CCC(N)=O)C(=O)N[C@@H](CC(C)C)C(=O)N[C@@H](CCC(N)=O)C(=O)N[C@@H](C)C(=O)N[C@@H](CCCNC(=N)N)C(=O)N[C@H](C(=O)N[C@@H](CC(C)C)C(=O)N[C@@H](C)C(=O)N[C@H](C(=O)N[C@@H](CCC(=O)O)C(=O)N[C@@H](CCCNC(=N)N)C(=O)N[C@@H](Cc1ccc(O)cc1)C(=O)N[C@@H](CC(C)C)C(=O)N[C@@H](CCCCN)C(=O)N[C@@H](CC(=O)O)C(=O)N[C@@H](CCC(N)=O)C(N)=O)C(C)C)[C@@H](C)CC [DP-125] | approximately 5 μg/ml | inhibits HIV-1 cell free virus infection
2 | CC[C@H](C)[C@H](NC(=O)[C@H](C)NC(=O)[C@@H](NC(=O)[C@@H](NC(=O)[C@H](CCCNC(=N)N)NC(=O)[C@H](C)NC(=O)[C@H](CCC(N)=O)NC(=O)[C@H](CC(C)C)NC(=O)[C@H](CC(N)=O)NC(=O)[C@H](CCCCN)NC(=O)[C@@H](NC(=O)CNC(=O)[C@H](Cc1c[nH]c2ccccc12)NC(=O)[C@@H](NC(=O)[C@@H](NC(=O)[C@H](CC(C)C)NC(=O)[C@H](CCCNC(=N)N)NC(=O)[C@H](CC(C)C)NC(=O)[C@H](CCSC)NC(=O)[C@H](CCC(=O)O)NC(=O)[C@H](CCC(N)=O)NC(=O)[C@H](CCC(N)=O)NC(=O)[C@H](CCCNC(=N)N)NC(=O)[C@H](CCCCN)NC(=O)[C@@H](NC(=O)[C@@H](NC(=O)[C@H](CC(=O)O)NC(=O)[C@H](CC(C)C)NC(=O)[C@H](CC(C)C)NC(=O)[C@H](CCC(N)=O)NC(=O)[C@H](CCC(N)=O)NC(C)=O)C(C)C)C(C)C)[C@@H](C)O)C(C)C)[C@@H](C)O)C(C)C)[C@@H](C)O)C(=O)N[C@@H](CCC(=O)O)C(=O)N[C@@H](CCCCN)C(=O)N[C@@H](Cc1ccc(O)cc1)C(=O)N[C@@H](CC(C)C)C(=O)N[C@@H](CCCCN)C(=O)N[C@@H](CC(=O)O)C(=O)N[C@@H](CCC(N)=O)C(N)=O [DP-118] | approximately 5 μg/ml | inhibits HIV-1 cell free virus infection

Source: US6750008B1, “Methods and compositions for inhibition of membrane fusion-associated events, including HIV transmission” (priority 1999, dated 2004)
